Test system: OGD/R-treated HT22 cells
Details: 1–10 μM pretreatment 4 h

Cn1cc(-c2cnc(N)n3nc(-c4ccco4)nc23)ccc1=O [1a]
inflammation modulators iNOS, COX-2 and VCAM-1 (western blot): significantly inhibited

Source: article PMC8919384 (ACS Medicinal Chemistry Letters, 2022)
